# How the values were obtained:
# [1] = target: 重组猴痘病毒表面蛋白M1R-His (Monkeypox virus); experiment: ELISA, M1R-His coated at 2 μg/mL, antibody titrated
# [2] = target: 生物素化蛋白M1R-His-Biotin (Monkeypox virus); experiment: ELISA, M1R-His-Biotin coated at 2 μg/mL, antibody titrated
substance,measurement,setting,value
"Anti-Monkeypox virus/MPXV M1R Antibody (普健生物, 货号 SAA0283)",EC50,[1],0.025 mg/L
same,EC50,[2],0.024 mg/L
